Measurements reported in PubChem BioAssay AID624099 (ICCB-Longwood, 2012).

- Aim: 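Human genes that papillomavirus E2 requires to repress the HPV18 LCR promoter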 (primary screen)
- Cells: human C33A cervical carcinoma cells (HPV-negative) stably expressing BPV1 E2 and an HPV18 LCR luciferase reporter
- Reagents: siRNA pool against human genes, 40 nM
- Time to read-out: 72 h
- Detection: 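Per-well luciferase luminescence, z-scored on each plate against the plate mean and SD with control wells left out, then averaged across three replicate plates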
- Reading the numbers: mean z-score and z-score: higher = stronger reporter signal, weaker E2 silencing
- Rule for the call: 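Mean z ≥ 2 together with z ≥ 2 in two or more of the three replicates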
This is one part, drawn at random, of about 21,000 reagents. Over the whole deposit, 497 (2.4%) are marked active. 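Higher z means weaker E2 silencing; only reporter increases were scored, and knock-downs that hurt cell survival may mask genuine repressor factors.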 A number with no mark means an inactive call.

target gene,PubChem SID,mean z-score,"z-score, replicate A","z-score, replicate B","z-score, replicate C"
WBP2 (WW domain binding protein 2),SID134321502,1.14,1.01,1.18,1.23
CDK5RAP1 (CDK5RAP1 mitochondrial tRNA methylthiotransferase),SID56479268,-0.55,-0.95,-0.18,-0.53
LOC388388 (retired record),SID134328786,0.89,1.08,0.55,1.04
MCCC1 (methylcrotonyl-CoA carboxylase subunit 1),SID134314176,-0.18,-0.12,-0.02,-0.41
ELMO2 (engulfment and cell motility 2),SID134323027,0.26,0.53,0.13,0.11
ZDHHC4 (zDHHC palmitoyltransferase 4),SID134320679,-0.86,-1.5,-0.81,-0.29
PIK3CG,SID56478988,0.42,0.11,0.78,0.36
COL6A5 (collagen type VI alpha 5 chain),SID134319790,1.39,1.21,1.41,1.54
NECTIN2 (nectin cell adhesion molecule 2),SID134310035,2.66 (active),2.46,2.73,2.78
ELL2 (elongation factor for RNA polymerase II 2),SID134313076,0.58,0.82,0.65,0.27
OR10G3 (olfactory receptor family 10 subfamily G member 3),SID134329916,3.25 (active),2.82,3.89,3.05
BLTP3A (bridge-like lipid transfer protein family member 3A),SID134317589,0.4,0.67,0.43,0.1
"ARAP3 (ArfGAP with RhoGAP domain, ankyrin repeat and PH domain 3)",SID134312175,0.72,0.94,0.38,0.85
RBM33 (RNA binding motif protein 33),SID134319240,-0.3,-0.46,-0.2,-0.26
RBM33 (RNA binding motif protein 33),SID134327713,-1.16,-1.35,-1.2,-0.95
BCL2L12 (BCL2 like 12),SID134321157,-1.17,-0.87,-1.17,-1.47
POR (cytochrome p450 oxidoreductase),SID134314750,0.83,1.35,0.87,0.28
RPP25L (ribonuclease P/MRP subunit p25 like),SID134321426,-1,-0.73,-0.95,-1.32
ANO4 (anoctamin 4),SID134322402,-0.58,-0.99,-0.37,-0.37
KCTD6 (potassium channel tetramerization domain containing 6),SID134320597,-1.31,-1.28,-1.15,-1.49
DALRD3 (DALR anticodon binding domain containing 3),SID134319828,-0.9,-1.36,-0.98,-0.38
ETV5 (ETS variant transcription factor 5),SID134313738,-0.88,-0.84,-0.87,-0.94
SLC39A1,SID134312610,-0.79,-0.79,-0.44,-1.14
FNDC11 (fibronectin type III domain containing 11),SID134318451,-0.31,-0.54,-0.23,-0.15
TRHDE-AS1 (TRHDE antisense RNA 1),SID134328370,0.34,0.13,0.51,0.4
UPK3B (uroplakin 3B),SID134322996,0.96,0.37,1.36,1.15
LOC645733 (retired record),SID134327132,0.05,-0.09,0.14,0.09
DCTN1 (dynactin subunit 1),SID134317124,-0.97,-1.19,-0.89,-0.84
"PFKL (phosphofructokinase, liver type)",SID56479167,1.01,0.56,1.41,1.06
PARP12 (poly(ADP-ribose) polymerase family member 12),SID134317949,0.17,0.3,0.05,0.16
CXCL6 (C-X-C motif chemokine ligand 6),SID134312817,-0.81,-0.71,-0.85,-0.86
SERPINH1 (serpin family H member 1),SID134315584,-0.5,-0.69,-0.3,-0.5
DUSP22 (dual specificity phosphatase 22),SID56478803,-0.33,0.07,-0.46,-0.59
CCDC6 (coiled-coil domain containing 6),SID134315050,1.02,1.03,0.76,1.28
ASCL1 (achaete-scute family bHLH transcription factor 1),SID134313187,0.85,0.9,1.48,0.16
CYP2F1 (cytochrome P450 family 2 subfamily F member 1),SID134315527,-0.55,-0.59,-0.77,-0.31
"GTPBP3 (GTP binding protein 3, mitochondrial)",SID134319023,-0.36,-0.6,-0.44,-0.05
LRRC45 (leucine rich repeat containing 45),SID134320861,-1.56,-1.48,-1.67,-1.54
NEMF (nuclear export mediator factor),SID134322915,-0.62,-0.83,-0.71,-0.33
NOP53 (NOP53 ribosome biogenesis factor),SID134311799,0.82,0.93,0.98,0.54
TBC1D9B (TBC1 domain family member 9B),SID134329359,-1.02,-1.1,-1,-0.96
CYP3A4 (cytochrome P450 family 3 subfamily A member 4),SID134313070,0.58,0.76,0.33,0.64
"ERVFRD-1 (endogenous retrovirus group FRD member 1, envelope)",SID134329675,-0.69,-0.38,-0.29,-1.4
GZMA (granzyme A),SID134311315,0.11,-0.15,0.22,0.25
SPATA32 (spermatogenesis associated 32),SID134319857,-1.33,-1.68,-1.21,-1.1
PIK3C2B,SID56479135,-0.55,-1.06,-0.56,-0.02
GNG3 (G protein subunit gamma 3),SID134317056,1.54,1.1,1.59,1.94

A portion of the results above, as a working copy:
target gene,PubChem SID,mean z-score,"z-score, replicate A","z-score, replicate B","z-score, replicate C"
CXCL6 (C-X-C motif chemokine ligand 6),SID134312817,-0.81,-0.71,-0.85,-0.86
SERPINH1 (serpin family H member 1),SID134315584,-0.5,-0.69,-0.3,-0.5
DUSP22 (dual specificity phosphatase 22),SID56478803,-0.33,0.07,-0.46,-0.59
CCDC6 (coiled-coil domain containing 6),SID134315050,1.02,1.03,0.76,1.28
ASCL1 (achaete-scute family bHLH transcription factor 1),SID134313187,0.85,0.9,1.48,0.16
CYP2F1 (cytochrome P450 family 2 subfamily F member 1),SID134315527,-0.55,-0.59,-0.77,-0.31
"GTPBP3 (GTP binding protein 3, mitochondrial)",SID134319023,-0.36,-0.6,-0.44,-0.05
LRRC45 (leucine rich repeat containing 45),SID134320861,-1.56,-1.48,-1.67,-1.54
NEMF (nuclear export mediator factor),SID134322915,-0.62,-0.83,-0.71,-0.33
NOP53 (NOP53 ribosome biogenesis factor),SID134311799,0.82,0.93,0.98,0.54
TBC1D9B (TBC1 domain family member 9B),SID134329359,-1.02,-1.1,-1,-0.96
CYP3A4 (cytochrome P450 family 3 subfamily A member 4),SID134313070,0.58,0.76,0.33,0.64

Additional entries:
target gene,PubChem SID,mean z-score,"z-score, replicate A","z-score, replicate B","z-score, replicate C"
LOC344382,SID134325501,-0.05,0.3,-0.05,-0.39
DSC1 (desmocollin 1),SID134316300,1.78,1.87,1.84,1.63
PCDHB11 (protocadherin beta 11),SID134317749,-0.39,-0.31,-0.4,-0.46
CALHM3 (calcium homeostasis modulator 3),SID134322664,1.19,1.7,0.98,0.91
SERPINB3 (serpin family B member 3),SID134317021,-0.56,-0.65,-0.78,-0.26
MRPL17 (mitochondrial ribosomal protein L17),SID134317289,1.16,0.8,1.12,1.56
"RAB40B (RAB40B, member RAS oncogene family)",SID134313230,-0.29,-0.2,0.03,-0.69
PHF11 (PHD finger protein 11),SID134324900,-0.58,-0.78,-0.4,-0.56
"FBXL21P (F-box and leucine rich repeat protein 21, pseudogene)",SID134316695,1.06,1.15,1.1,0.94
RB1CC1 (RB1 inducible coiled-coil 1),SID134324725,1.44,1.73,1.26,1.34
SLC9C1,SID134325743,-0.1,-0.42,0.14,-0.02
ZDHHC24 (zDHHC palmitoyltransferase 24),SID134326605,-1.38,-1.34,-1.14,-1.67
LOC113386 (retired record),SID134320556,2 (active),1.91,2.02,2.06
LOC401623 (retired record),SID134329190,-0.08,-0.36,0.27,-0.17
ALPK1 (alpha kinase 1),SID56478943,-0.23,-0.65,0.05,-0.1
ECI2 (enoyl-CoA delta isomerase 2),SID134314515,0.64,0.71,0.59,0.61
UCP1 (uncoupling protein 1),SID134312681,0.28,0.32,0.16,0.35
MAPRE1 (microtubule associated protein RP/EB family member 1),SID134311986,-0.23,-0.12,-0.11,-0.48
HSD3B2,SID134316806,-1.5,-1.68,-1.35,-1.46
KCNJ9 (potassium inwardly rectifying channel subfamily J member 9),SID134311671,0.77,0.62,0.99,0.69
HSPB1 (heat shock protein family B (small) member 1),SID134310839,3.52 (active),3.81,3.36,3.4
LOC54073 (retired record),SID134319536,1.16,1.4,0.98,1.1
MT4 (metallothionein 4),SID134318976,-0.87,-0.91,-0.65,-1.06
ORC2 (origin recognition complex subunit 2),SID56478626,-0.09,-0.33,0.23,-0.16
KAT2B (lysine acetyltransferase 2B),SID134310716,0.25,0.13,0.36,0.25
KLRC2 (killer cell lectin like receptor C2),SID134315650,0.52,0.35,0.3,0.92
